# Target: SARS‐CoV‐2 NSP3 ADRP domain (1023–1192), tag cleaved, for FP (SARS-CoV-2, UniProt P0DTD1 1023-1192)
# Test: fluorescence polarisation
# Details: both partners purified
binder,measurement,value
TGSTYLHPLSELLGIP [wild‐type MBOAT1_(16–31) peptide],Kd,49 µM

# — PMC12102759 (Protein Science : A Publication of the Protein Society, 2025)
